Measured values from several laboratories, pooled; numbers as filed in NIAID ChemDB.

All rows: whole-cell or culture tests; agent: HIV-1; cell line: MT-4; measure: EC50

ECn: concentration that inhibits the pathogen or its effect by n%. Lines come from different laboratories, so protocols vary. Blank or dashed fields: not listed here. a–b is a range or a potency band.

smiles,changes,method,strain,result
Cc1c(C(C)c2ccc3ccccc3c2)n(COCc2ccccc2)c(=O)[nH]c1=O,-,MTT,IIIB,>312 µM
CC1CCC(C(C)C)/C(=N/NC(=S)Nc2ccccc2)C1,-,-,IIIB,>108.1 µg/mL
CC(C)(C)NC(=O)[C@@H]1C[C@@H]2CCCC[C@@H]2CN1C[C@@H](O)[C@H](Cc1ccccc1)NC(=O)[C@@H]1CCCS(=O)(=O)C1,-,syncytia,IIIB,0.2 µM
N#Cc1c2c3c(c4ccccc4n3CCN2CCN2CCCC2)n(-c2ccc([N+](=O)[O-])cc2)c1=O,-,cytopathic effect / MTT,LAI,9.3 µM
C=C1CN(S(=O)(=O)c2ccc(C)cc2)CCCN(Cc2ccncc2)CCCN(S(=O)(=O)c2ccc(C)cc2)C1,-,p24,NL4-3,6.13 µM
Cc1cn([C@@H]2O[C@@H]3CN[C@@]4(OCC(C)(C)C)CS(=O)(=O)O[C@@]34[C@H]2O)c(=O)[nH]c1=O,-,-,IIIB,24.2 µM
Cc1cn([C@@H]2O[C@@H](CO)[C@H](O)[C@H]2O)c(=O)[nH]c1=O,-,cytopathic effect / MTT,IIIB,>1000 µM
Nc1ccc(Cl)cc1S(=O)(=O)n1cccc1C(=O)OCCO,-,cytopathic effect / MTT,IIIB,9 µM
O=C(Cc1cccc(O)c1)c1nc2ccccc2[nH]1,-,cytopathic effect,IIIB,27 µM
Nc1ncnc2c1ncn2[C@@H]1O[C@@H](CO)[C@H](O)[C@H]1O,-,cytopathic effect / MTT,IIIB,>100 µM
CCc1c(Cc2cc(C)cc(C)c2)n(COCC#Cc2ccccc2[N+](=O)[O-])c(=O)[nH]c1=O,Y181C,MTT,IIIB,>10 µM
Nc1ccc(Cl)cc1S(=O)(=O)n1cccc1C(=O)OC1CCCCC1,-,cytopathic effect / MTT,IIIB,>200 µM
CC[C@H](C)[C@H]([NH3+])C(=O)NNc1ccn([C@H]2CC[C@@H](CO)O2)c(=O)n1,-,-,-,>100 µM
CN1c2ccccc2C2C1C=CC(=O)N2c1ccc(C(N)=O)cc1,-,cytopathic effect / MTT,LAI,1–32 µM
Cc1cc(Cl)cc(Cl)c1Oc1nc(N)nc(Nc2ccc(C#N)cc2)n1,-,cytopathic effect / MTT,IIIB,0.004 µM
COCCOC(=O)c1cccn1S(=O)(=O)c1cc(Cl)ccc1N,-,cytopathic effect / MTT,IIIB,3.2 µM
N#CCCN1c2ccccc2C2C1C=C(C#N)C(=O)N2c1ccc([N+](=O)[O-])cc1,-,cytopathic effect / MTT,LAI,1–32 µM
CC(C)N(CC1Cn2c3ccccc3c3c2c(c(C#N)c(=O)n3-c2ccc([N+](=O)[O-])cc2)O1)C(C)C,-,cytopathic effect / MTT,LAI,1.96 µM
Nc1ccn(C2C[C@](N)(CO)CO2)c(=O)n1,-,-,-,>100 µg/mL
CCN(CC)C(=O)c1cccn1S(=O)(=O)c1cc(Cl)ccc1[N+](=O)[O-],-,cytopathic effect / MTT,IIIB,>13 µM
CCCOC12CS(=O)(=O)OC13[C@@H](CN2)O[C@@H](n1cc(C)c(=O)[nH]c1=O)[C@@H]3O,-,-,IIIB,>250 µM
CCOC(=O)c1ccn(S(=O)(=O)c2cc(Cl)ccc2[N+](=O)[O-])c1,-,cytopathic effect / MTT,IIIB,>0.7 µM
Cc1cn([C@H]2C=C[C@@H](OCP(=O)(O)O)O2)c(=O)[nH]c1=O,-,cytopathic effect,-,12 µM
O=S(=O)(O)c1ccc(NS(=O)(=O)c2ccc(-c3ccc(S(=O)(=O)Nc4ccc(S(=O)(=O)O)c5cccc(S(=O)(=O)O)c45)cc3)cc2)c2c(S(=O)(=O)O)cccc12,-,cytopathic effect,IIIB,18 µg/mL
C=C1CN(S(C)(=O)=O)CCCN(Cc2ccccc2)CCCN(S(C)(=O)=O)C1,-,p24,NL4-3,>75 µM
CN(C)CC1Cn2c3ccccc3c3c2c(c(C#N)c(=O)n3-c2ccc([N+](=O)[O-])cc2)O1,-,cytopathic effect / MTT,LAI,0.16 µM
CCOC(=O)c1c(C)n([C@H]2C[C@@H]2c2ccccc2)c2ccc(O)cc12,-,MTT,NL4-3,5.91 µM
CCC(O)(c1ccc(C)cc1)c1c(C)c(=O)[nH]c(=O)n1COCc1ccccc1,-,MTT,IIIB,>6.82 µM
Cc1cn([C@H]2C[C@H](N=[N+]=[N-])[C@@H](CO)O2)c(=O)[nH]c1=O,-,cytopathic effect / MTT,IIIB X4,0.018 µM
C=C1CN(S(=O)(=O)c2ccc(C)cc2)CCCN(Cc2ccccn2)CCCN(S(=O)(=O)c2ccc(C)cc2)C1,-,p24,NL4-3,>75 µM
CC1Cn2c(=O)[nH]c3cccc(c32)CN1Cc1ncc[nH]1,-,cytopathic effect / MTT,IIIB,>685 µM
C=C1CN(S(=O)(=O)c2ccc(C)cc2)CCCN(CC(C)C)CCCN(S(=O)(=O)c2ccc(C)cc2)C1,-,p24,NL4-3,19.3 µM
Cc1sc(-c2ccncc2)c(C2=CCC(C)(C)CC2)c1[C@H](OC(C)(C)C)C(=O)O,-,luminescence,NL4-3,0.032 µM
CC(C)c1c(C(C)c2ccc(F)cc2)n(COCc2ccccc2)c(=O)[nH]c1=O,L100I,MTT,IIIB,8.35 µM
COc1ccc(NC(=S)N/N=C2\CC(C)CCC2C(C)C)cc1,-,-,IIIB,>84.6 µg/mL
C=C(c1cc(OC)cc(OC)c1)c1c(C)c(=O)[nH]c(=O)n1COCc1ccccc1,E138K,MTT,IIIB,20.28 µM
CC(C)[C@@H]1CC[C@@H](C)C/C1=N\NC(N)=S,-,-,IIIB,>12.7 µg/mL
Cc1cn([C@@H]2O[C@@H]3CN[C@@]4(OCc5ccccc5)CS(=O)(=O)O[C@@]34[C@H]2O)c(=O)[nH]c1=O,-,-,IIIB,>250 µM
C=C1CN(S(=O)(=O)c2ccccc2)CCCN(Cc2ccccc2)CCCN(S(=O)(=O)c2ccccc2)C1,-,p24,NL4-3,>15 µM
CN1C(=O)[C@@H](c2cc(Cl)c(O)c(Cl)c2)NC(=O)[C@@H]2NC(=O)[C@H](c3cc(Cl)c(O)c(Cl)c3)NC(=O)[C@@H](NC(=O)C(=O)c3cc(Cl)c(O)c(Cl)c3)Cc3c[nH]c4cc(ccc34)-c3cc2cc(c3O)Oc2ccc(cc2)C[C@H]1C(=O)N[C@@H](C(=O)O)c1ccc(O)cc1,-,cytopathic effect / MTT,IIIB,2.2 µg/mL
CC(C)COC(=O)c1cccn1S(=O)(=O)c1cc(Cl)ccc1[N+](=O)[O-],-,cytopathic effect / MTT,IIIB,14 µM
CCCCCCCCCCCCCCCCOCC(COP(=O)(O)O)OCCCCCCCCCCCCCCCC,-,cytopathic effect / MTT,IIIB,>5 µM
CN1c2ccccc2C2C1C=CC(=O)N2c1ccc(-c2nc(-c3ccc(C#N)cc3)cs2)cc1,-,cytopathic effect / MTT,LAI,>32 µM
NC(=O)c1cccn1S(=O)(=O)c1cc(Cl)ccc1N,-,cytopathic effect / MTT,IIIB,15 µM
CCCCC1(CCc2cccc(NS(=O)(=O)c3ccc(C#N)cn3)c2)COC(=O)C(C(CC)c2cccc(NS(=O)(=O)c3ccc(C#N)cn3)c2)=C1O,-,-,IIIB,11.6 µM
Cc1cccc(C(C)c2c(C)c(=O)[nH]c(=O)n2COCc2ccccc2)c1,-,MTT,IIIB,>343 µM
C=CCn1cc(COCn2c(Cc3cc(C)cc(C)c3)c(CC)c(=O)[nH]c2=O)nn1,WT,MTT,IIIB,0.01 µM
C#CC(C)=CCN1Cc2cccc3[nH]c(=O)n(c23)CC1C,-,cytopathic effect / MTT,IIIB,>707 µM
COc1ccc(S(=O)(=O)N(CC(C)C)C[C@@H](O)[C@H](Cc2ccccc2)NC(=O)[C@@H]2CCC[C@]3(CCCO3)C2)cc1,-,syncytia,IIIB,0.075 µM
N#Cc1c2c3c(c4ccccc4n3CCO2)n(-c2ccc([N+](=O)[O-])cc2)c1=O,-,cytopathic effect / MTT,LAI,0.51 µM
Cc1ccccc1C(C)c1c(C)c(=O)[nH]c(=O)n1COCc1ccccc1,L100I,MTT,IIIB,231 µM
Cc1ccc(S(=O)(=O)N2CCCN(Cc3ccccc3)CCCN(S(=O)(=O)c3ccc(C)cc3)CC(=O)C2)cc1,-,p24,NL4-3,>15 µM
CCOC(=O)CN1c2ccccc2C2C1C=C(C#N)C(=O)N2c1ccc([N+](=O)[O-])cc1,-,cytopathic effect / MTT,LAI,1–32 µM
C=C(c1ccccc1)c1c(C)c(=O)[nH]c(=O)n1COCc1ccccc1,Y181C,MTT,IIIB,>133 µM
Cc1cn([C@H]2C[C@H](N=[N+]=[N-])[C@@H](CO)O2)c(=O)[nH]c1=O,-,MTT,IIIB,0.0007 µM
CCc1c(Cc2cc(C)cc(C)c2)n(COCC#Cc2cc(C(F)(F)F)cc(C(F)(F)F)c2)c(=O)[nH]c1=O,EFV-resistant (K103R V179D P225H),MTT,IIIB,>70 µM
CCS[C@]12CS(=O)(=O)O[C@@]13[C@@H](CN2)O[C@@H](n1cc(C)c(=O)[nH]c1=O)[C@@H]3O,-,-,IIIB,111 µM
Cc1cn(N2C[C@H](CO)[C@H]2CO)c(=O)[nH]c1=O,-,antigen,-,>100 µg/mL
C=C1CN(S(=O)(=O)c2ccc(C)cc2)CCCN(CC2CC=CCC2)CCCN(S(=O)(=O)c2ccc(C)cc2)C1,-,p24,NL4-3,0.6 µM
CC(C)[C@H](NC(=O)OCc1ccccn1)C(=O)N[C@@H](Cc1ccccc1)[C@@H](O)C[C@H](Cc1ccccc1)NC(=O)OCc1cccnc1,PR-L10R M46I L63P V82T,p24,NL4-3,<3 µM
CCc1c(Cc2cc(C)cc(C)c2)n(COCc2ccc(C#CCO)cc2)c(=O)[nH]c1=O,Y181C,MTT,IIIB,0.07 µM
[N-]=[N+]=N[C@@]1(CO)CO[C@H](n2cnc3c(N)ncnc32)C1,-,-,-,>100 µg/mL
CCCOC12CS(=O)(=O)OC13[C@@H](CN2)O[C@@H](n1cc(C)c(=O)[nH]c1=O)[C@@H]3O[Si](C)(C)C(C)(C)C,-,-,IIIB,5.1 µM
Nc1ccn([C@H]2CC[C@@H](CO)O2)c(=O)n1,-,-,-,≥1 µM
CCCCCO[C@]12CS(=O)(=O)O[C@@]13[C@@H](CN2)O[C@@H](n1cc(C)c(=O)[nH]c1=O)[C@@H]3O[Si](C)(C)C(C)(C)C,-,-,IIIB,>5 µM
CCCCC1(CCc2cccc(NS(=O)(=O)c3ccc(OC)cc3)c2)COC(=O)C(C(CC)c2cccc(NS(=O)(=O)c3ccc(OC)cc3)c2)=C1O,-,-,IIIB,>29.9 µM
COC(=O)/C=C/CN1Cc2cccc3[nH]c(=O)n(c23)CC1C,-,cytopathic effect / MTT,IIIB,>252 µM
CCCCC1(CCc2cccc(NS(=O)(=O)c3ccc(C#N)cc3)c2)COC(=O)C(C(CC)c2cccc(NS(=O)(=O)c3ccc(C#N)cc3)c2)=C1O,-,-,IIIB,10.6 µM
CN1CCn2c3c(c(O)c2C1=O)C(=O)N(Cc1ccc(F)cc1)CC3,-,p24,-,<10 µM
CCOC(=O)c1c([C@@H]2C[C@H]2c2ccccc2)n(C)c2ccc(O)cc12,-,MTT,NL4-3,3.58 µM
Nc1ncnc2c1ncn2[C@@H]1C[C@](N)(CO)CO1,-,-,-,>100 µg/mL
Cc1cn([C@@H]2O[C@@H]3CN[C@@]4(C(N)=O)CS(=O)(=O)O[C@@]34[C@H]2O[Si](C)(C)C(C)(C)C)c(=O)[nH]c1=O,-,-,IIIB,>125 µM
CC1=C[C@@H]([C@H]2O[C@@H]3Cc4c(ccc5c4C=C[C@H]4C(C)(C)O[C@@H]6CC(=O)O[C@@]64C5)[C@@H]3[C@@H]2C)OC1=O,-,cytopathic effect,IIIB,~19.7 µg/mL
C=C1CN(S(=O)(=O)c2ccc(C)cc2)CCCN(CC(C)CC)CCCN(S(=O)(=O)c2ccc(C)cc2)C1,-,p24,NL4-3,0.98 µM
CCCCCO[C@]12CS(=O)(=O)O[C@@]13[C@@H](CN2)O[C@@H](n1cc(C)c(=O)[nH]c1=O)[C@@H]3O,-,-,IIIB,143 µM

8 of the rows above, restated:

smiles	changes	method	strain	result
C=C1CN(S(=O)(=O)c2ccc(C)cc2)CCCN(Cc2ccccn2)CCCN(S(=O)(=O)c2ccc(C)cc2)C1	-	p24	NL4-3	>75 µM
CN1CCn2c3c(c(O)c2C1=O)C(=O)N(Cc1ccc(F)cc1)CC3	-	p24	-	<10 µM
Cc1cn([C@@H]2O[C@@H](CO)[C@H](O)[C@H]2O)c(=O)[nH]c1=O	-	cytopathic effect / MTT	IIIB	>1000 µM
Cc1cn([C@H]2C[C@H](N=[N+]=[N-])[C@@H](CO)O2)c(=O)[nH]c1=O	-	MTT	IIIB	0.0007 µM
[N-]=[N+]=N[C@@]1(CO)CO[C@H](n2cnc3c(N)ncnc32)C1	-	-	-	>100 µg/mL
C=C(c1ccccc1)c1c(C)c(=O)[nH]c(=O)n1COCc1ccccc1	Y181C	MTT	IIIB	>133 µM
C=C1CN(S(=O)(=O)c2ccc(C)cc2)CCCN(CC(C)C)CCCN(S(=O)(=O)c2ccc(C)cc2)C1	-	p24	NL4-3	19.3 µM
CC(C)COC(=O)c1cccn1S(=O)(=O)c1cc(Cl)ccc1[N+](=O)[O-]	-	cytopathic effect / MTT	IIIB	14 µM